Key:
HCoV-229E [1] = assay: anti-HCoV-229E activity in Huh7 cells by cytopathic effect (CPE) assay; type: cell-based, Human coronavirus HCoV-229E; conditions: SI=TC50/EC50, HCoV-229E in Huh7 cells
HCoV-229E [2] = assay: anti-HCoV-229E activity in Huh7.5 cells by cytopathic effect (CPE) assay; type: cell-based, Human coronavirus HCoV-229E; conditions: SI=TC50/EC50, HCoV-229E in Huh7.5 cells

Question: How did the SI (HCoV-229E [1]) turn out when `Cn1c(=O)c2c(nc(NCCO)n2Cc2ccc(OC(F)(F)F)cc2)n(C)c1=O` [IMB-2-3, 8-((2-hydroxyethyl)amino)-1,3-dimethyl-7-(4-(trifluoromethoxy)benzyl)-3,7-dihydro-1H-purine-2,6-dione] was run?
Answer: >21.14

Question: What about the SI (HCoV-229E [2]) of the same compound?
Answer: >50.5

Question: Which results are given for `Cn1c(=O)c2c(nc(NCCO)n2Cc2cccc(F)c2)n(C)c1=O` [IMB-80, 7-(3-fluorobenzyl)-8-((2-hydroxyethyl)amino)-1,3-dimethyl-3,7-dihydro-1H-purine-2,6-dione]?
Answer: SI (HCoV-229E [1]): >27.03; SI (HCoV-229E [2]): >20.53

Question: For `Cn1c(=O)c2c(nc(NCCO)n2Cc2cccc(F)c2F)n(C)c1=O` [IMB-82, 7-(2,3-difluorobenzyl)-8-((2-hydroxyethyl)amino)-1,3-dimethyl-3,7-dihydro-1H-purine-2,6-dione], which SI (HCoV-229E [1]) is on record?
Answer: >9

Question: And the SI (HCoV-229E [2])?
Answer: >3.95

Question: For `Cn1c(=O)c2c(nc(NCCO)n2Cc2ccc(C(C)(C)C)cc2)n(C)c1=O` [IMB-84, 7-(4-(tert-butyl)benzyl)-8-((2-hydroxyethyl)amino)-1,3-dimethyl-3,7-dihydro-1H-purine-2,6-dione], which SI (HCoV-229E [1]) is on record?
Answer: >16.86

Question: And the SI (HCoV-229E [2])?
Answer: >21.14

Question: With `CCCCc1ccc(Cn2c(NCCO)nc3c2c(=O)n(C)c(=O)n3C)cc1` [IMB-85, 7-(4-butylbenzyl)-8-((2-hydroxyethyl)amino)-1,3-dimethyl-3,7-dihydro-1H-purine-2,6-dione] as the compound, how does the SI (HCoV-229E [2]) read?
Answer: >64.1

Question: Which results are given for `COc1ccc(Cn2c(NCCO)nc3c2c(=O)n(C)c(=O)n3C)cc1` [IMB-88]?
Answer: SI (HCoV-229E [1]): >16.86; SI (HCoV-229E [2]): >11.85

Question: With `Cn1c(=O)c2c(nc(NCCO)n2Cc2c(F)cccc2F)n(C)c1=O` [IMB-93, 7-(2,6-difluorobenzyl)-8-((2-hydroxyethyl)amino)-1,3-dimethyl-3,7-dihydro-1H-purine-2,6-dione] as the compound, how does the SI (HCoV-229E [1]) read?
Answer: >80.97

Question: Which results are given for `COc1cccc(Cn2c(NCCO)nc3c2c(=O)n(C)c(=O)n3C)c1` [IMB-C5]?
Answer: SI (HCoV-229E [1]): >21.19; SI (HCoV-229E [2]): >5.2

Question: `COc1cccc(Cn2c(N[C@@H](C)CO)nc3c2c(=O)n(C)c(=O)n3C)c1` [IMB-ZH-2, (S)-8-((1-hydroxypropan-2-yl)amino)-7-(3-methoxybenzyl)-1,3-dimethyl-3,7-dihydro-1H-purine-2,6-dione] was tested. Which SI (HCoV-229E [1]) did it give?
Answer: >3

Question: What about the SI (HCoV-229E [2]) of the same compound?
Answer: >1.62

Question: For `COCCNc1nc2c(c(=O)n(C)c(=O)n2C)n1Cc1cccc(OC)c1` [IMB-ZH-10, 7-(3-methoxybenzyl)-8-((2-methoxyethyl)amino)-1,3-dimethyl-3,7-dihydro-1H-purine-2,6-dione], which SI (HCoV-229E [1]) is on record?
Answer: >15.58

Question: What about the SI (HCoV-229E [2]) of the same compound?
Answer: >7.05

Question: What does the source list for `COc1cccc(Cn2c(NCc3ccc(F)c(C(F)(F)F)c3)nc3c2c(=O)n(C)c(=O)n3C)c1` [IMB-ZH-11, 8-((4-fluoro-3-(trifluoromethyl)benzyl)amino)-7-(3-methoxybenzyl)-1,3-dimethyl-3,7-dihydro-1H-purine-2,6-dione]?
Answer: SI (HCoV-229E [1]): >4.85; SI (HCoV-229E [2]): >3.83

Question: What does the source list for `COc1cccc(Cn2c(N[C@@H](CO)C(C)C)nc3c2c(=O)n(C)c(=O)n3C)c1` [IMB-ZH-12, (R)-8-((1-hydroxy-3-methylbutan-2-yl)amino)-7-(3-methoxybenzyl)-1,3-dimethyl-3,7-dihydro-1H-purine-2,6-dione]?
Answer: SI (HCoV-229E [1]): >2.08; SI (HCoV-229E [2]): >2.08

Question: `Cn1c(=O)c2c(nc(NCCO)n2Cc2cccc(Cl)c2F)n(C)c1=O` [IMB-ZHB-4x, 7-(3-chloro-2-fluorobenzyl)-8-((2-hydroxyethyl)amino)-1,3-dimethyl-3,7-dihydro-1H-purine-2,6-dione] was tested. Which SI (HCoV-229E [1]) did it give?
Answer: 24.08

Question: What about the SI (HCoV-229E [2]) of the same compound?
Answer: 10.80

Question: How did the SI (HCoV-229E [1]) turn out when `Cn1c(=O)c2c(nc(NCCO)n2Cc2ccccc2)n(C)c1=O` [IMB-ZHB-13x, 7-benzyl-8-((2-hydroxyethyl)amino)-1,3-dimethyl-3,7-dihydro-1H-purine-2,6-dione] was run?
Answer: >27.03

Question: What about the SI (HCoV-229E [2]) of the same compound?
Answer: >3.95

Question: Which results are given for `COC(=O)CNc1nc2c(c(=O)n(C)c(=O)n2C)n1Cc1cccc(OC)c1` [IMB-ZHC-2, methyl(7-(3-methoxybenzyl)-1,3-dimethyl-2,6-dioxo-2,3,6,7-tetrahydro-1H-purin-8-yl)glycinate]?
Answer: SI (HCoV-229E [1]): >4.5; SI (HCoV-229E [2]): >3

Question: Which results are given for `COc1cccc(Cn2c(NC[C@@H](C)O)nc3c2c(=O)n(C)c(=O)n3C)c1` [IMB-ZHC-6, (R)-8-((2-hydroxypropyl)amino)-7-(3-methoxybenzyl)-1,3-dimethyl-3,7-dihydro-1H-purine-2,6-dione]?
Answer: SI (HCoV-229E [1]): >10.61; SI (HCoV-229E [2]): >2.28

Question: How did the SI (HCoV-229E [1]) turn out when `COc1cccc(Cn2c(NC[C@H](C)O)nc3c2c(=O)n(C)c(=O)n3C)c1` [IMB-ZHC-7, (S)-8-((2-hydroxypropyl)amino)-7-(3-methoxybenzyl)-1,3-dimethyl-3,7-dihydro-1H-purine-2,6-dione] was run?
Answer: >6.98

Question: What about the SI (HCoV-229E [2]) of the same compound?
Answer: >3

Question: Which results are given for `COc1cccc(Cn2c(NCC(N)=O)nc3c2c(=O)n(C)c(=O)n3C)c1` [IMB-ZHC-15, ((7-(3-methoxybenzyl)-1,3-dimethyl-2,6-dioxo-2,3,6,7-tetrahydro-1H-purin-8-yl)amino)acetamide]?
Answer: SI (HCoV-229E [1]): >3; SI (HCoV-229E [2]): >2.28

Question: With `CC(C)C(=O)OC[C@H]1O[C@@H](n2ccc(NO)nc2=O)[C@H](O)[C@@H]1O` [Molnupiravir, reference compound] as the compound, how does the SI (HCoV-229E [1]) read?
Answer: >104.17

Question: What about the SI (HCoV-229E [2]) of the same compound?
Answer: >46.73

Source: patent publication US20240352022A1, “GROUP OF IMB-C5 SERIES COMPOUNDS HAVING ANTI-CORONAVIRUS ACTIVITY AND APPLICATION THEREOF” (priority 2021, published 2024)
